Compound potency records, mixed from different reports. Data source: NIAID ChemDB in PubChem.

All rows: whole-cell or culture tests; species: Hepatitis C virus; method: replicon; read-out: EC50

ECn: concentration that inhibits the pathogen or its effect by n%. Two numbers with a dash give a range or band. Neighbouring rows are from separate reports.

COCCOC(=O)N1CCN(c2nc(N)nc3ncc(-c4ccc(OC)c(OC)c4)nc23)CC1 ; strain: HCV replicon ; cell line: Huh7 ; result: <0.3 µM
Fc1cccc(-c2cc3ccn(Cc4cn(-c5ccc(Cl)cc5)nn4)cc-3n2)c1F ; strain: 1b ; result: <100 µM
Nc1nc2c(ncn2[C@@H]2O[C@H](CO)[C@@H](O)[C@@H]2F)c(=O)[nH]1 ; cell line: Huh7 ; result: <20 µM
C=CC1CC1(NC(=O)[C@@H]1C[C@@H](OC(=O)Nc2ccccc2C(=O)c2ccccc2)CN1C(=O)[C@@H](NC(=O)OC(C)(C)C)C(C)(C)C)C(=O)NS(=O)(=O)C1CC1 ; strain: 1b ; cell line: Huh7 ; result: 0.1–1 µM
Fc1cccc(-c2[nH]c3cnccc3c2C2CCCCC2)c1F ; strain: 1b ; result: <100 µM
COc1ccc2c(c1)[C@@H]1C[C@]1(C(=O)N1[C@@H]3C[C@H]1CN(C(=O)N(C)C)C3)Cn1c-2c(C2CCCCC2)c2ccc(C(=O)NS(=O)(=O)N(C)C)cc21 ; strain: 1b ; result: 0.001–0.5 µM
COc1c(C(C)(C)C)cc(-n2ccc(=O)[nH]c2=O)c2ncc(-c3ccc(NS(C)(=O)=O)cc3)cc12 ; strain: GT-1b Con1 ; setting: 40% human serum ; cell line: Huh7 ; result: 0.011 µM
Cc1cnn(C)c1-c1nc(O[C@@H]2C[C@@H](C(=O)N[C@@H](CC3CCC3)C(=O)C(=O)NC3CC3)N(C(=O)[C@@H](NC(=O)NCC3CC3)C(C)(C)C)C2)c2sccc2n1 ; strain: 1b ; result: <1 µM
COc1ccc(-c2cnc3nc(N)nc(N4CCN(C(C)c5ccccc5)CC4)c3n2)cc1OC ; strain: HCV replicon ; cell line: Huh7 ; result: <0.3 µM
COc1ccc2c(c1)C1CC1(C(=O)N1[C@@H]3C[C@H]1CN(S(C)(=O)=O)C3)Cn1c-2c(C2CCCCC2)c2ccc(C(=O)NS(=O)(=O)N(C)C)cc21 ; strain: 1b ; result: 0.001–0.5 µM
C=CC1CC1(NC(=O)[C@@H]1C[C@@H](OC(=O)Nc2cccc(C)c2C)CN1C(=O)[C@@H](NC(=O)OC(C)(C)C)C(C)(C)C)C(=O)NS(=O)(=O)C1CC1 ; strain: 1b ; cell line: Huh7 ; result: 1–10 µM
COc1ccc(-c2cc(C(=O)O)n(-c3ncccc3C(F)(F)F)n2)cc1 ; cell line: Huh7 ; result: >32 µM
COc1ccc(-c2cnc3nc(N)nc(N4CCN(C(=O)Nc5cccs5)CC4)c3n2)cc1OC ; strain: HCV replicon ; cell line: Huh7 ; result: <0.3 µM
C=CC1CC1(NC(=O)[C@@H]1C[C@@H](OC(=O)Nc2ccccc2N2CCOCC2)CN1C(=O)[C@@H](NC(=O)OC(C)(C)C)C(C)(C)C)C(=O)NS(=O)(=O)C1CC1 ; strain: 1b ; cell line: Huh7 ; result: 0.1–1 µM
O=C(OCc1ccc(Cl)cc1)c1cn(Cc2ccc(Cl)cc2)c2cc(N3CCOCC3)c(F)cc2c1=O ; result: 1.2 µM
COc1ccc2c(c1)C1CC1(C(=O)C1C3CCC1CN(C)C3)Cn1c-2c(C2CCCCC2)c2ccc(C(=O)NS(=O)(=O)CC(F)F)cc21 ; strain: 1b ; result: 0.001–0.5 µM
CCOC(=O)c1cc(-c2ccc3ccccc3c2)nn1-c1ncccc1[N+](=O)[O-] ; cell line: Huh7 ; result: >32 µM
CC(C)(C)OC(=O)N[C@@H]1CCCCC/C=C\[C@@H]2C[C@@]2(C(=O)NS(=O)(=O)C2CC2)NC(=O)[C@@H]2C[C@@H](OC(=O)N3Cc4cccc(F)c4C3)CN2C1=O ; strain: A156S ; setting: genotype 1b ; result: 0.002 µM
CC1CCC(C(=O)N(c2cc(-c3ccc(NC(=O)c4cncs4)cc3)sc2C(=O)O)C(C)C)CC1 ; strain: 1a ; result: >0.5 µM
CCC[C@H](NC(=O)[C@@H]1C[C@@H](Oc2nc(-c3c(C)cnn3C)nc3ccsc23)CN1C(=O)[C@@H](NC(=O)NC(C)(C)C)C(C)(C)C)C(=O)C(=O)NC1CC1 ; strain: 1b ; result: <1 µM
O=c1c(O)c(-c2ccc(O)c(O)c2)oc2cc(O)c(O)c(O)c12 ; strain: genotype 1b ; result: 5 µM
CNC(=O)c1c(-c2ccc(F)cc2)oc2cc(N(C(C)C)S(C)(=O)=O)c(OC)cc12 ; cell line: Huh7 ; result: <1 µM
COc1ccc(-c2cnc3nc(N)nc(N4CCN(CC5OCCO5)CC4)c3n2)cc1OC ; strain: HCV replicon ; cell line: Huh7 ; result: 0.3–1 µM
N#Cc1c(Nc2cc(C(F)(F)F)cc(C(F)(F)F)c2)s[nH]c1=O ; cell line: Huh7 ; result: 1–10 µM
Oc1ccccc1-c1ccn(-c2ccccc2C(F)(F)F)n1 ; cell line: Huh7 ; result: 20 µM
C=CC1CC1(NC(=O)[C@@H]1C[C@@H](OC(=O)NCc2cccc(CC)c2)CN1C(=O)[C@@H](NC(=O)OC(C)(C)C)C(C)(C)C)C(=O)NS(=O)(=O)C1CC1 ; strain: 1b ; cell line: Huh7 ; result: 1–10 µM
Cc1ccc(O)c(-c2n[nH]c(-c3nccc4ccccc34)n2)c1O ; cell line: Huh7 ; result: >19 µM
CC(=O)c1cccc(Nc2s[nH]c(=O)c2C#N)c1 ; cell line: Huh7 ; result: >50 µM
O=[N+]([O-])c1ccc(-c2nc(-c3ccc(C(F)(F)F)cn3)no2)c(Cl)c1 ; cell line: Huh7 ; result: 4.7 µM
N#Cc1c(Nc2ccc(I)c(Cl)c2)s[nH]c1=O ; cell line: Huh7 ; result: <1 µM
COc1ccc(C2Nc3cc(C(=O)c4ccccc4)ccc3NC3=C2C(=O)CC(C)(C)C3)cc1OC ; cell line: Huh7 ; result: 17.8 µM
Cc1cc(C)n2nc(CC3=C(O)CC(CCc4ccc(C(C)(C)C#N)c(F)c4)(C4CCCC4)OC3=O)nc2n1 ; strain: M423T ; result: 81 µM
CNC(=O)c1cc2oc(-c3ccc(F)cc3)c(C(=O)O)c2cc1OC(C)C ; cell line: Huh7 ; result: >30 µM
Cc1cc2c([nH]c(=O)n2Cc2ccc(F)cc2)c(N)n1 ; result: 0.926 µM
CNC(=O)c1c(-c2ccc(F)cc2)oc2ccc(F)cc12 ; cell line: Huh7 ; result: <30 µM
CC1CCC(C(=O)N(c2cc(-c3ccc(NC(=O)c4cscn4)cc3)sc2C(=O)[O-])C(C)C)CC1.[NH3+]CCO ; strain: 1a ; result: <0.5 µM
N#Cc1c(Nc2ccccc2Cl)s[nH]c1=O ; cell line: Huh7 ; result: 10–50 µM
CC1CCC(C(=O)N(c2cc(-c3ccc(NC(=O)c4cn(C)cn4)cc3)sc2C(=O)O)C(C)C)CC1 ; strain: 1a ; result: <0.5 µM
CCCCc1ccc(C(=O)N2CCN(c3nc(N)nc4ncc(-c5ccc(OC)c(OC)c5)nc34)CC2)cc1 ; strain: HCV replicon ; cell line: Huh7 ; result: <0.3 µM
Cc1cccc(Nc2s[nH]c(=O)c2C#N)c1 ; cell line: Huh7 ; result: 1–10 µM
CNC(=O)c1c(-c2ccccc2)oc2c(C)cc(OC)cc12 ; cell line: Huh7 ; result: <10 µM
CC1CCC(C(=O)N(c2cc(-c3ccc(NC(=O)c4ccc(F)cc4)nc3)sc2C(=O)O)C(C)C)CC1 ; strain: 1a ; result: <0.5 µM
Cc1cc(C)c2c(=O)c3cc(N)c(N4CCN(c5ccccn5)CC4)cc3n(C)c2c1 ; cell line: Huh 5-2 ; result: 5 µg/mL
COC(=O)N[C@H](C(=O)N1CC2(CC2)C[C@H]1c1ncc(-c2ccc3c(c2)C(F)(F)c2cc(-c4ccc5nc([C@@H]6[C@H]7CC[C@H](C7)N6C(=O)[C@@H](NC(=O)OC)C(C)C)[nH]c5c4)ccc2-3)[nH]1)C(C)C ; strain: Genotype 2 ; cell line: HCV replicon ; result: 0.021 µM
Cc1ccccc1-c1noc(-c2ccc(OCCO)cc2O)n1 ; cell line: Huh7 ; result: 2.5 µM
Cc1ccc2c(c1)NC(c1ccc(C(C)C)cc1)C1=C(CC(C)(C)CC1=O)N2 ; cell line: Huh7 ; result: >25 µM
Cn1ccc2c(C3CCCCC3)c(-c3ccccc3)nc-2c1 ; strain: 1b ; result: <100 µM
CCC(C)Oc1ccccc1C1C2=C(CC(c3ccc(OC)c(OC)c3)CC2=O)Nc2ccccc2N1C(C)=O ; cell line: Huh7 ; result: 0.599 µM
COc1ccccc1Nc1s[nH]c(=O)c1C#N ; cell line: Huh7 ; result: 10–50 µM
CC1CCC(C(=O)N(c2cc(-c3ccc(NC(=O)c4cnccn4)cc3)sc2C(=O)O)C(C)C)CC1 ; strain: 1a ; result: <0.5 µM
COc1ccc(-c2cnc3nc(N)nc(N4CCN(C(=O)N(C)c5ccccc5)CC4)c3n2)cc1OC ; strain: HCV replicon ; cell line: Huh7 ; result: <0.3 µM
CC1(C)CC(=O)C2=C(C1)Nc1ccc(C(=O)c3ccccc3)cc1NC2c1cccc(Cl)c1 ; cell line: Huh7 ; result: 15.6 µM
Cc1cc(C(=O)Nc2ccc(-c3cc(N(C(=O)C4CCC(C)CC4)C(C)C)c(C(=O)O)s3)cc2)n[nH]1 ; strain: 1a ; result: <0.5 µM
CS(=O)(=O)Nc1ccc2c(c1)S(=O)(=O)N=C(C1=C(O)[C@@H]3C4CC[C@@H](C4)[C@@H]3N(Cc3ccc(C(F)(F)F)cc3)C1=O)N2 ; strain: 1b ; result: 3.3 µM
CNC(=O)c1c(-c2ccc(F)cc2)oc2cc(C#N)c(OC)cc12 ; cell line: Huh7 ; result: <1 µM
COc1cccc(Nc2s[nH]c(=O)c2C#N)c1 ; cell line: Huh7 ; result: >50 µM
C=CC1CC1(NC(=O)[C@@H]1C[C@@H](OC(=O)Nc2cc(Cl)ccc2OC)CN1C(=O)[C@@H](NC(=O)OC(C)(C)C)C(C)(C)C)C(=O)NS(=O)(=O)C1CC1 ; strain: 1b ; cell line: Huh7 ; result: 0.1–1 µM
Cc1ccccc1Nc1s[nH]c(=O)c1C#N ; cell line: Huh7 ; result: 10–50 µM
CN(C)C(=O)Cn1ccc2c(C3CCCCC3)c(-c3ccccc3)nc-2c1 ; strain: 1b ; result: <100 µM
O=c1[nH]c(=O)n([C@@H]2O[C@H](CO)[C@@H](O)[C@@H]2F)cc1/C=C/Br ; strain: Con1 ; result: 0.02 µM
Cc1cccc(C)c1Sc1ccc(Nc2s[nH]c(=O)c2C#N)cc1 ; cell line: Huh7 ; result: 1–10 µM
Cc1nocc1C(=O)Nc1ccc(-c2cc(N(C(=O)C3CCC(C)CC3)C(C)C)c(C(=O)O)s2)cc1 ; strain: 1b ; result: <0.5 µM
Oc1ccc(-c2[nH]c3cnccc3c2C2CCCCC2)cc1 ; strain: 1b ; result: <100 µM
CNC(=O)c1c(-c2ccc(F)cc2)oc2cc(N(C)S(C)(=O)=O)c(OCc3cccc(C#N)c3)cc12 ; cell line: Huh7 ; result: <1 µM
COc1ccc(-c2cnc3nc(N)nc(N4CCN(C(=O)Nc5ccc(F)c(Cl)c5)CC4)c3n2)cc1OC ; strain: HCV replicon ; cell line: Huh7 ; result: <0.3 µM
CC1CCC(C(=O)N(c2cc(-c3ccc(NC(=O)c4csc(N)n4)cc3)sc2C(=O)O)C(C)C)CC1 ; strain: 1b ; result: <0.5 µM
CNC(=O)c1c(-c2ccc(F)cc2)oc2cc(N3CCC(S(C)(=O)=O)C3)c(OC(C)C)cc12 ; cell line: Huh7 ; result: <1 µM
COc1ccc2c(c1)C1CC1(C(=O)N1[C@@H]3C[C@H]1CN(C(=O)N(C)C)C3)Cn1c-2c(C2CCCCC2)c2ccc(C(=O)NS(=O)(=O)N(C)C)cc21 ; strain: 1b ; result: 0.001–0.5 µM